Common to all, as to experiment: purified protein
Common to all, as to conditions: pH 8.5; 25.0 °C

The test system of one data set is O=C[C@H](O)COP(=O)(O)O.
Data set [1] relates to NC(=O)c1ccc[n+]([C@@H]2O[C@H](COP(=O)(O)OP(=O)(O)OC[C@H]3O[C@@H](n4cnc5c(N)ncnc54)[C@H](O)[C@@H]3O)[C@@H](O)[C@H]2O)c1.
A further data set has as its system O=P(O)(O)O.

The term Vmax denotes the top rate of the reaction or transport when substrate is in excess. As usually defined, the kcat/Km is the second-order rate constant that governs catalysis at low substrate concentration.

Take CpGAPDH (Clostridium perfringens SM101): the K0.5 in the data set with O=C[C@H](O)COP(=O)(O)O was determined as 2.8 ± 0.2 mM; in data set [1], 0.18 ± 0.01 mM; in the data set with O=P(O)(O)O, 8.4 ± 0.4 mM. The maximum rate (Vmax) came out at 636000 µM/min/mg in the data set with O=C[C@H](O)COP(=O)(O)O, 408000 µM/min/mg in data set [1] and 522000 µM/min/mg in the data set on O=P(O)(O)O. Besides, the catalytic efficiency (kcat/Km) in the data set on O=C[C@H](O)COP(=O)(O)O turned out to be 38000 M⁻¹ s⁻¹; in data set [1], 378000 M⁻¹ s⁻¹; in the data set on O=P(O)(O)O it was 10000 M⁻¹ s⁻¹.

Source of the values: PMC6400076 (Frontiers in Microbiology, 2019).
